Results of unrelated studies side by side (data: NIAID ChemDB).

Common to all: growth or infection tests; organism: Staphylococcus aureus; read-out: MIC

Rows are shuffled and stem from different studies.

SMILES	strain	value
NC(=O)CNc1cc2c(cc1F)c(=O)c(C(=O)O)cn2-c1ccc(F)cc1F	ATCC 6538P	12.5 µg/mL
CC[C@H]1OC(=O)[C@H](C)C(=O)[C@H](C)[C@@H](O[C@@H]2O[C@H](C)C[C@H](N(C)C)[C@H]2O)[C@@]2(C)C[C@@H](C)C(=NC(C)=O)[C@H](C)C(OC/C(=C\C=C\c3cccc([N+](=O)[O-])c3)CO2)[C@]1(C)O	29213 (erythromycin-susceptible)	0.5 µg/mL
O=C1O[C@@H](COc2ccon2)CN1c1ccc(-n2ccnn2)c(F)c1	122 (novobiocin-resistant)	8 µg/mL
CC[C@H]1OC(=O)[C@H](C)C(=O)[C@H](C)[C@@H](O[C@@H]2O[C@H](C)C[C@H](N(C)C)[C@H]2O)[C@@]2(C)C[C@@H](C)C(=NC(C)=O)[C@H](C)C(OC/C(=C\C#Cc3cccnc3)CO2)[C@]1(C)O	29213 (erythromycin-susceptible)	0.25 µg/mL
CCCNCCCNc1cc2c(cc1F)c(=O)c(C(=O)O)cn2C1CC1	ATCC 6538P	25 µg/mL
CC[C@H]1OC(=O)[C@H](C)C(=O)[C@H](C)[C@@H](O[C@@H]2O[C@H](C)C[C@H](N(C)C)[C@H]2O)[C@@]2(C)C[C@@H](C)C(=NC(C)=O)[C@H](C)[C@@H](OC/C(=N/OCc3ccc(-c4cccc(N)n4)s3)CO2)[C@]1(C)O	27660 (erythromycin A -resistant)	0.5 µg/mL
Cc1cn(-c2ccc(N3C[C@H](CNc4ccon4)OC3=O)cc2F)cn1	004 (methicillin quinolone-resistant)	0.5 µg/mL
CC(C)NCCCNc1cc2c(cc1F)c(=O)c(C(=O)O)cn2C1CC1	ATCC 5278 (methicillin-resistant)	12.5 µg/mL
CC[C@H]1OC(=O)[C@H](C)C(=O)[C@H](C)[C@@H](O[C@@H]2O[C@H](C)C[C@H](N(C)C)[C@H]2O)[C@@]2(C)C[C@@H](C)C(=NC(=O)CN)[C@H](C)C(OC/C(=C\C=C\c3ccccc3)CO2)[C@]1(C)O	29213 (erythromycin-susceptible)	1 µg/mL
CC[C@H]1OC(=O)[C@@](C)(F)C(=O)[C@H](C)[C@@H](O[C@@H]2O[C@H](C)C[C@H](N(C)C)[C@H]2O)[C@@]2(C)C[C@@H](C)C(=NC(C)=O)[C@H](C)[C@@H](OC/C(=N\OCc3ccc(-c4nccs4)nc3)CO2)[C@]1(C)O	29213 (erythromycin A-susceptible)	0.5 µg/mL
COc1ccccc1CNc1cc2c(cc1F)c(=O)c(C(=O)O)cn2C1CC1	ATCC 6538P	1.56 µg/mL
CC[C@H]1OC(=O)[C@H](C)C(=O)[C@H](C)[C@@H](O[C@@H]2O[C@H](C)C[C@H](N(C)C)[C@H]2O)[C@@]2(C)C[C@@H](C)/C(=N\C(=O)OC)[C@H](C)C(OC/C(=C\C=C\c3ccccc3)CO2)[C@]1(C)O	27660 (erythromycin-resistant)	0.5 µg/mL
CN(C)CCNc1cc2c(cc1F)c(=O)c(C(=O)O)cn2C1CC1	ATCC 5278 (methicillin-resistant)	>100 µg/mL
CC[C@H]1OC(=O)[C@@](C)(F)C(=O)[C@H](C)[C@@H](O[C@@H]2O[C@H](C)C[C@H](N(C)C)[C@H]2O)[C@@]2(C)C[C@@H](C)C(=NC(C)=O)[C@H](C)[C@@H](OC/C(=N\OCc3ccc(C(N)=O)cc3)CO2)[C@]1(C)O	29213 (erythromycin A-susceptible)	0.13 µg/mL
N#Cc1ccn(-c2ccc(N3C[C@H](COc4ccon4)OC3=O)cc2F)c1	122 (novobiocin-resistant)	0.5 µg/mL
CC[C@H]1OC(=O)[C@@](C)(F)C(=O)[C@H](C)[C@@H](O[C@@H]2O[C@H](C)C[C@H](N(C)C)[C@H]2O)[C@@]2(C)C[C@@H](C)C(=NC(C)=O)[C@H](C)[C@@H](OC/C(=N\OCc3ccc(-c4cccc(N)n4)s3)CO2)[C@]1(C)O	27660 (erythromycin A -resistant)	0.13 µg/mL
COC(=O)N1CCN(c2ccc(N3C[C@H](COc4ccon4)OC3=O)cc2F)CC1	078 (oxford)	2 µg/mL
CCN(CC)CCCCC(C)Nc1cc2c(cc1F)c(=O)c(C(=O)O)cn2C1CC1	ATCC 6538P	>100 µg/mL
CC[C@H]1OC(=O)[C@H](C)C(=O)[C@H](C)[C@@H](O[C@@H]2O[C@H](C)C[C@H](N(C)C)[C@H]2O)[C@@]2(C)C[C@@H](C)C(=NC(C)=O)[C@H](C)[C@@H](OC/C(=N\OCc3ccc(C(N)=O)s3)CO2)[C@]1(C)O	27660 (erythromycin A -resistant)	0.13 µg/mL

The last 2 rows once more:

SMILES | strain | value
CCN(CC)CCCCC(C)Nc1cc2c(cc1F)c(=O)c(C(=O)O)cn2C1CC1 | ATCC 6538P | >100 µg/mL
CC[C@H]1OC(=O)[C@H](C)C(=O)[C@H](C)[C@@H](O[C@@H]2O[C@H](C)C[C@H](N(C)C)[C@H]2O)[C@@]2(C)C[C@@H](C)C(=NC(C)=O)[C@H](C)[C@@H](OC/C(=N\OCc3ccc(C(N)=O)s3)CO2)[C@]1(C)O | 27660 (erythromycin A -resistant) | 0.13 µg/mL